Compound potency records, mixed from different reports. Data source: NIAID ChemDB in PubChem.

Common to all: whole-cell or culture tests; agent: Mycobacterium tuberculosis

MIC50, MIC90 and the like: level of inhibition, or share of isolates inhibited. Conditions beyond the fields shown may differ between rows. ECn is the concentration giving n% inhibition of infection, replication or growth. MIC bound: limit read from a one-dose screen. Blank or dashed fields: not listed here. Inhibition is in % at the dose shown (toxicity tests: loss of growth or viability).

structure,measure,conditions,dose,read by,cells,strain,value
O=C(c1ccc(O)cc1)N1N=C(c2ccccc2)CC1c1ccc(Cl)cc1Cl,MIC,,,MTT,,H37Ra,61 µM
CC1(C)O[C@H]2[C@@H](O1)[C@@H](COCC(O)Cn1cnc([N+](=O)[O-])c1)O[C@@H]1OC(C)(C)O[C@@H]12,MIC,,,agar,,H37Rv,1.56 µg/mL
O=C(c1ccccc1)c1cn(-c2ccc(Cl)cc2)nn1,inhibition,,12.5 µg/mL,,,H37Rv,0%
CCN(CC)CCOC(=O)c1ccc(N=NC2Sc3nc4ccccc4n3C2=O)cc1.Cl,MIC,,,BACTEC,,H37Rv,≥12.8 µg/mL
CC[C@@H](CO)NCCN[C@@H](CC)CO,MIC,,,,,WC 64/02,1.25 µg/mL
CC(=O)c1c(C)n([O-])c2ccccc2[n+]1=O,MIC,inside macrophages,,,,H37Rv,3.13 µg/mL
COc1cc2c(cc1OC)C(c1c(-c3c(Cl)cccc3Cl)noc1C)=NCC2,MIC bound,,,resazurin,,H37Rv,>6.25 µg/mL
CN(C)c1ccc(C2CC(c3ccccc3)=NN2C(=S)Nc2ccccc2)cc1,MBC,,,visual reading,,H37Ra,>500 µM
Cc1ccc(/C=C2\COc3ccccc3C2=O)cc1,EC50,,,broth dilution / resazurin,,H37Rv,1.43 µg/mL
O=c1[nH]c(=S)[nH]c(O)c1C=Nc1cc(Cl)ccc1O,MIC,,,visual reading,,Clinical isolate,32 µg/mL
O=C(NC1CCCCCCC1)c1ccc2ccccc2c1,MIC90,,,visual reading / absorbance,,H37Rv,7.11 µM
CSc1ccc(NC(=S)Nc2ccc(SC)cc2)cc1,MIC,,,,,H37Ra,0.5 µg/mL
CCCCNC(=O)COc1ccc(/C=C(/C(=O)c2ccc(OC)cc2)c2ccccc2)cc1,MIC100,,,,,H37Rv,>250 µg/mL
Cc1cccc(/C=C2\Cc3ccccc3C2=O)c1,inhibition,,12.5 µg/mL,broth dilution / resazurin,,H37Rv,78%
CCCCc1ccc(NC(=S)Nc2ccc(O)cc2)cc1,MIC,,,,,H37Ra,0.5 µg/mL
O=C(O)c1nc(-c2ccccc2)ncc1-c1nnnn1-c1ccccc1,inhibition,,6.25 µg/mL,resazurin,,H37Rv,-80%
N#C/C(=C\c1cccc(F)c1)n1nnc2ccccc21,MIC90,,,,,ATCC 27294,>100 µM
C[C@H]1COc2c(N3CCN(C)CC3)c(F)cc3c(=O)c(C(=O)O)cn1c23,MBC,,,,,001-011 (drug-resistant),1 µg/mL
N#C/C(=C\c1cccc(Cl)c1Cl)n1nnc2ccccc21,MIC90,,,,,ATCC 27294,>100 µM
CC(=O)OC1NC(=O)C(OC(C)=O)NC1=O,MIC bound,,,BACTEC,,H37Rv,>12.5 µg/mL
O=C1/C(=C/c2cccc(Br)c2)CCc2ccccc21,inhibition,,12.5 µg/mL,broth dilution / resazurin,,H37Rv,56%
O=C(NN1C(=O)CSC1c1occc1[N+](=O)[O-])c1cc(-c2cc(F)cc(F)c2)ccc1O,inhibition,,6.25 µg/mL,BACTEC,,H37Rv,<90%
O=C(c1ccc(O)cc1)N1N=C(c2ccccc2)CC1c1ccccc1Cl,MIC,,,MTT,,H37Ra,66 µM
O=C(Cc1ccc(-c2ccc(C(F)(F)F)cc2)cc1)N[C@@H]1COc2nc([N+](=O)[O-])cn2C1,MIC,,,resazurin,,H37Rv,1 µM
O=C(Oc1ccc(Cl)cc1C(=O)Nc1ccc(Cl)c(Cl)c1)c1ccccc1,MIC,21 d,,broth dilution,,234/2005,0.5 µM
Cc1ccc(/C=C/C(=O)c2c(O)cc(C)oc2=O)cc1,MIC,,,visual reading,,H37Rv,4 µg/mL
NNC(=O)c1ccncc1,MIC,,,,,WH 51/02,0.062 µg/mL
O=C(Oc1cc(Cl)ccc1C(=O)Nc1cccc(Cl)c1)c1ccccc1,MIC,14 d,,broth dilution,,331/88 (H37Rv),4 µM
CC1(C)NC(C(=O)O)Cc2c1[nH]c1ccccc21,inhibition,,6.25 µg/mL,resazurin,,H37Rv,-14%
CC(=O)c1c(CBr)n([O-])c2ccccc2[n+]1=O,EC50,,,BACTEC,,H37Rv,>6.25 µg/mL
Cc1c(Cl)ccc2c1NC(=O)C2(O)CC(=O)c1ccccc1,inhibition,,6.25 µg/mL,resazurin,,H37Rv,11%
CCNC(=S)NNC(=O)c1cc(-c2cc(F)cc(F)c2)ccc1O,inhibition,,6.25 µg/mL,BACTEC,,H37Rv,25%
CC1(C)O[C@H]2[C@@H](O1)[C@@H](COCC(O)Cn1ccnc1[N+](=O)[O-])O[C@@H]1OC(C)(C)O[C@@H]12,MIC,,,agar,,H37Rv,1.56 µg/mL
CN(C)NP(=O)(c1ccccc1)c1ccccc1,inhibition,,12.5 µg/mL,BACTEC,,H37Rv,0%
Cc1ccc(C2CC(c3ccccc3)=NN2C(=S)Nc2ccccc2)cc1,MBC,,,visual reading,,H37Ra,34 µM
CC1(C)O[C@H]2[C@@H](O1)[C@@H](COCC(O)C[N+]1=NC([N+](=O)[O-])N=C1)O[C@@H]1OC(C)(C)O[C@@H]12,MIC,,,agar,,H37Rv,12.5 µg/mL
O=C(c1ccccc1)c1cc(Cl)ccc1NC(=O)C(Cl)(Cl)Cl,MIC bound,,,resazurin,,H37Rv,>6.25 µg/mL
N#C/C(=C/c1cccc(Cl)c1)n1nnc2ccccc21,MIC90,,,,,ATCC 27294,>100 µM
C=CCNC(=S)NNC(=O)c1cc(-c2cc(F)cc(F)c2)ccc1O,inhibition,,6.25 µg/mL,BACTEC,,H37Rv,<90%
Cc1cccc(/C=C2\CCCCCC2=O)c1,inhibition,,12.5 µg/mL,broth dilution / resazurin,,H37Rv,0%
N#C/C(=C\c1cccc(I)c1)n1nnc2ccccc21,MIC90,,,,,ATCC 27294,90.9 µM
CC(=O)c1cn(-c2ccccc2)nn1,inhibition,,12.5 µg/mL,,,H37Rv,5%
O=C(NC12CC3CC(CC(C3)C1)C2)c1cc(=O)c2c(Br)cccc2[nH]1,MIC,,,visual reading / absorbance,,H37Rv,9.97 µM
Cc1nc([N+](=O)[O-])cn1CC(COC[C@H]1O[C@@H]2OC(C)(C)O[C@@H]2[C@H]2OC(C)(C)O[C@H]21)OCc1ccc(OC(F)(F)F)cc1,MIC,,,agar,,H37Rv,3.13 µg/mL
CC(C)C(=O)c1cn(-c2ccccc2)nn1,MIC,,,,,H37Rv,>12.5 µg/mL
Cc1cc(/C=C2\SC(=O)NC2=O)c(C)n1C1CCCCC1,MIC,,,visual reading,,H37Rv,>16 µg/mL
CCCCCN(C)Cc1cc(C(=O)O)ccc1Nc1ccnc(Nc2ccc3cc(C)[nH]c3c2)n1,MIC,,,resazurin,,H37Rv,8 µg/mL
N#Cc1c(N)sc2sc(-c3ccccc3)cc12,MIC,,,,,H37Rv,97.5 µM
O=C(Oc1cc(Cl)ccc1C(=O)Nc1ccc(F)cc1)c1ccccc1,MIC,21 d,,broth dilution,,331/88 (H37Rv),8 µM
CC1=Nn2c(nc3sc4c(c3c2=O)CCCC4)SC1,MIC bound,,,resazurin,,H37Rv,>6.25 µg/mL
Cc1[nH]n(-c2ccc(OCc3ccccc3)nn2)c(=O)c1Cc1ccccc1,MIC,,,visual reading,,H37Rv,1 µg/mL
C=C(C)CC[C@H]1CN(c2ccn(N3CCOCC3)c2)C(=O)O1,MIC90,,,,,ATCC 35828 (pyrazinamide-resistant),>100 µM
CC(C)(C)c1ccc(NC(=S)Nc2ccc(C(C)(C)C)cc2)cc1,MIC,,,,,H37Ra,>20 µg/mL
CCN1C(=O)CS/C1=N/NC(=O)c1cc(-c2cc(F)cc(F)c2)ccc1O,inhibition,,6.25 µg/mL,BACTEC,,H37Rv,<90%
COc1ccc(/C=C(\C#N)n2nnc3ccccc32)cc1,MIC90,,,,,ATCC 27294,>100 µM
CCN1CC(=O)N(C)C1=S,MIC,,,BACTEC,,H37Rv,>12.5 µg/mL
CC(=O)c1c(C)n([O-])c2ccc(Cl)cc2[n+]1=O,MIC,,,BACTEC,VERO,H37Rv,0.78 µg/mL
O=C(Oc1ccc(Br)cc1C(=O)Nc1ccc(C(F)(F)F)cc1)c1ccccc1,MIC,14 d,,broth dilution,,53/2009,1 µM
O=C(NC(=S)c1ccc(Br)cc1)NS(=O)(=O)c1ccc(Cl)cc1,inhibition,,6.25 µg/mL,,,H37Rv,-3%
CCCCc1ccc(NC(=S)Nc2ccc(SCCC)cc2)cc1,MIC,,,,,H37Ra,0.5 µg/mL
CC(C)C(=O)c1cn(-c2ccc(Cl)cc2)nn1,inhibition,,12.5 µg/mL,,,H37Rv,0%
O=C(NN1C(=O)CSC1c1ccc(F)cc1)c1cc(-c2cc(F)cc(F)c2)ccc1O,inhibition,,6.25 µg/mL,BACTEC,,H37Rv,<90%
COc1cccc(/C=C2\Cc3ccccc3C2=O)c1,inhibition,,12.5 µg/mL,broth dilution / resazurin,,H37Rv,79%
O=C(Oc1ccc(Cl)cc1C(=O)Nc1ccc(C(F)(F)F)cc1)c1ccccc1,MIC,21 d,,broth dilution,,Praha 131,0.5 µM
CCOC(=O)c1c(N)sc2sc(-c3ccc(Cl)cc3)cc12,MIC,multidrug-resistant,,,,MDR-TB,18.5 µM
CCCCCCCCCCCCCCCOC(COC[C@H]1O[C@@H]2OC(C)(C)O[C@@H]2[C@H]2OC(C)(C)O[C@H]21)C[N+]1=NC([N+](=O)[O-])N=C1,MIC,,,agar,,H37Rv,6.25 µg/mL
CC(=O)C1=C(C)N2C(=NC3=C(CCc4ccccc43)C2c2ccc(F)cc2)S1,MIC bound,,,BACTEC,,H37Rv,>12.5 µg/mL
CC1(C)CC(N=c2cc3n(-c4cc(Cl)c(Cl)c(Cl)c4)c4ccccc4nc-3cc2Nc2cc(Cl)c(Cl)c(Cl)c2)CC(C)(C)N1,MIC,inside macrophages,,,Macrophages,H37Rv,0.015 µg/mL
CC(=O)c1c(COc2ccc([N+](=O)[O-])cc2)n([O-])c2ccccc2[n+]1=O,EC50,,,BACTEC,VERO,H37Rv,<6.25 µg/mL
COc1ccccc1C1CC(c2ccccc2)=NN1C(=O)c1ccc(O)cc1,MBC,,,visual reading,,H37Ra,537 µM
COc1cc(Cl)c(/C=C2\N=C(c3ccccc3)OC2=O)cc1OC,MIC bound,,,BACTEC,,H37Rv,>12.5 µg/mL
Cc1ccc(-c2cc3c(C#N)c(N)sc3s2)cc1,MIC,,,,,H37Rv,23.1 µM
CNC(=S)Sc1c(Cl)c(Cl)c(Cl)c(Cl)c1Cl,MIC bound,,,resazurin,,H37Rv,>6.25 µg/mL
N#Cc1c(N)sc2sc(-c3ccc(Cl)cc3Cl)cc12,MIC,multidrug-resistant,,,,MDR-TB,19.2 µM
CCn1cc(C(=O)O)c(=O)c2cc3c(cc21)OCO3,MIC bound,,,BACTEC,,H37Rv,>12.5 µg/mL
O=C1/C(=C/c2ccccc2Cl)COc2ccccc21,inhibition,,10 µg/mL,broth dilution / resazurin,,H37Rv,71%
CC(C)OC(=O)NNC(=O)c1ccncc1,MIC,,,resazurin,,H37Rv,6.25 µg/mL
COc1ccc(C2CC(c3ccccc3)=NN2C(=O)c2ccc(O)cc2)cc1,MIC,,,MTT,,H37Ra,>535 µM
CO[C@@H]1/C=C\C=C(/C)C(=O)NC2=CC(=O)C(NCCCl)=C(C[C@@H](C)C[C@@H](OC)[C@H](O)[C@H](C)/C=C(\C)[C@H]1OC(N)=O)C2=O,inhibition,,12.5 µg/mL,BACTEC,,H37Rv,37%
CC1(C)CC(N=c2cc3n(-c4ccc(Cl)c(Cl)c4)c4ccccc4nc-3cc2Nc2ccc(Cl)c(Cl)c2)CC(C)(C)N1,MIC,inside macrophages,,,Macrophages,H37Rv,0.03 µg/mL
C[CH2][Ge]([CH2]C)[O][Ge]([CH2]C)[CH2]C.C[CH2][Ge]([CH2]C)[O][Ge]([CH2]C)[CH2]C,MIC bound,,,BACTEC,,H37Rv,≤128 µg/mL
O=C1/C(=C/c2ccccc2Br)COc2ccccc21,inhibition,,10 µg/mL,broth dilution / resazurin,,H37Rv,73%
O=C(O)[C@H](O)[C@@H](O)[C@H](O[C@@H]1O[C@H](CO)[C@H](O)[C@H](O)[C@H]1O)[C@H](O)CO,MIC bound,,,,,H37Rv,>6.25 µg/mL
COc1ccc(NC(=S)Nc2ccc(OC)cc2)cc1,MIC,,,,,H37Ra,1 µg/mL
Cc1ccc(NC(=O)C2C(=O)N(c3ccc(C)c(C)c3)C(=O)C2N=N)cc1C,MIC bound,,,BACTEC,,H37Rv,>12.5 µg/mL
CC(C)c1ccc(-c2cc3c(C#N)c(N)sc3s2)cc1,MIC,,,,,H37Rv,20.9 µM

A second listing of 8 rows from above:

| structure | measure | conditions | dose | read by | cells | strain | value |
|---|---|---|---|---|---|---|---|
| CCCCc1ccc(NC(=S)Nc2ccc(O)cc2)cc1 | MIC |  |  |  |  | H37Ra | 0.5 µg/mL |
| O=C(O)c1nc(-c2ccccc2)ncc1-c1nnnn1-c1ccccc1 | inhibition |  | 6.25 µg/mL | resazurin |  | H37Rv | -80% |
| CC(C)OC(=O)NNC(=O)c1ccncc1 | MIC |  |  | resazurin |  | H37Rv | 6.25 µg/mL |
| O=C(NC12CC3CC(CC(C3)C1)C2)c1cc(=O)c2c(Br)cccc2[nH]1 | MIC |  |  | visual reading / absorbance |  | H37Rv | 9.97 µM |
| CN(C)c1ccc(C2CC(c3ccccc3)=NN2C(=S)Nc2ccccc2)cc1 | MBC |  |  | visual reading |  | H37Ra | >500 µM |
| CC(=O)c1c(COc2ccc([N+](=O)[O-])cc2)n([O-])c2ccccc2[n+]1=O | EC50 |  |  | BACTEC | VERO | H37Rv | <6.25 µg/mL |
| Cc1nc([N+](=O)[O-])cn1CC(COC[C@H]1O[C@@H]2OC(C)(C)O[C@@H]2[C@H]2OC(C)(C)O[C@H]21)OCc1ccc(OC(F)(F)F)cc1 | MIC |  |  | agar |  | H37Rv | 3.13 µg/mL |
| N#Cc1c(N)sc2sc(-c3ccc(Cl)cc3Cl)cc12 | MIC | multidrug-resistant |  |  |  | MDR-TB | 19.2 µM |